The data set deals with HEK293T. In words: Mammalian cytotoxicity counter screen, luminescent ATP viability assay. Format: cell-based, human. The conditions noted are these: toxicity in mammalian cell cultures versus G. lamblia GS-clone 7 trophozoites.

`CCCN(CCC)c1ccc(N=Nc2ccccc2C(=O)O)cc1` [propyl red]: the “Selectivity index (SI), CC50/EC50” value was > 4.
